Pooled drug test results. Numbers come from NIAID ChemDB, via PubChem.

Common to all: tests on isolated targets; species: HIV-1; target: Protease

An empty or dashed field is not shown. ICn is the concentration giving n% inhibition. Rows are shuffled and stem from different studies.

| SMILES | conditions | read by | read-out | result |
|---|---|---|---|---|
| CC[C@H](C)[C@H](NC(=O)[C@@H]1CCCN1C(=O)[C@H](O)[C@H](Cc1ccccc1)NC(=O)[C@H](CO)NC(=O)CCc1ccccc1)C(=O)N[C@H](C(N)=O)C(C)C |  |  | IC50 | <5 µM |
| CSCC[C@H](NC(=O)[C@H](CCO)N(Cc1ccccc1)C(=O)[C@H](Cc1ccccc1)NC(=O)OC1c2ccccc2-c2ccccc21)C(=O)NC(C)(C)C |  | HPLC | IC50 | 0.297 µM |
| CC[C@H](C)[C@@H](C(=O)N[C@H](C(N)=O)C(C)C)N(C)C(=O)[C@@H]1CCCN1C(=O)[C@@H](O)[C@H](Cc1ccccc1)NC(=O)[C@H](CC(N)=O)NC(=O)CCc1ccccc1 |  |  | IC50 | >5 µM |
| CC(=O)N[C@@H](Cc1ccc(F)cc1)C(=O)N[C@H](C(=O)N[C@@H](Cc1ccccc1)[C@@H](O)C(=O)N[C@H]1Cc2ccc(cc2)OCCCNC(=O)[C@H](C(C)C)NC1=O)C(C)C |  | fluorescence | IC50 | 0.003 µM |
| CC(C)(C)NC(=O)[C@@H]1C2CCCCC2CCN1C(=O)[C@@H](O)[C@H](Cc1ccccc1)NC(=O)[C@H](CS(C)(=O)=O)NC(=O)COc1cccc2ccccc12 |  |  | IC50 | >0.05 µM |
| COC(=O)[C@H](CC(C)C)NC(=O)C[C@@H]1CC[C@@H](O)[C@@H]1NC(=O)[C@H](Cc1ccccc1)NC(=O)OC(C)(C)C |  | absorbance | IC50 | 20 µM |
| CC[C@H](C)[C@@H](NC(=O)[C@@H](C[C@H](O)[C@H](CC(C)C)NC(=O)[C@H](Cc1cnc[nH]1)NC(=O)[C@H](Cc1ccccc1)NC(=O)[C@@H]1CCCN1C(=O)[C@@H](N)Cc1cnc[nH]1)C(C)C)C(=O)N[C@@H](Cc1cnc[nH]1)C(=O)O | pH 7.0 | HPLC | IC50 | 0.025 µM |
| CSCC[C@H](NC(=O)[C@H](CCO)N(Cc1ccccc1)C(=O)[C@H](CC(C)C)NC(=O)OCC1c2ccccc2-c2ccccc21)C(=O)NC(C)(C)C |  | HPLC | IC50 | 0.17 µM |
| CC(C)(C)OC(=O)N[C@@H](Cc1ccccc1)C(=O)N[C@@H](CC(N)=O)C(=O)N[C@@H](Cc1ccccc1)[C@H](O)C(=O)NCC1CCCCC1 |  |  | IC50 | <1000 µM |
| COC(=O)[C@@H](NC(=O)C[C@H]1CC[C@H](O)[C@H]1NC(=O)[C@H](C)NC(=O)OC(C)(C)C)C(C)C |  | absorbance | IC50 | >10 µM |
| CC[C@H](C)[C@H](NC(=O)[C@@H](NC(=O)CCCCCCCCCCCCCCC(=O)N[C@@H](Cc1ccc(N)cc1)C(=O)N[C@@H](Cc1ccccc1)C(=O)O)C(C)O)C(=O)N[C@@H](Cc1ccccc1)C(N)=O |  | HPLC | IC50 | 0.97 µM |
| CC(C)[C@@H]1NC(=O)[C@@H](NC(=O)OCc2ccccc2)CCCOc2ccc(cc2)C[C@@H]([C@@H](O)[C@H](O)[C@@H]2Cc3ccc(cc3)OCCC[C@H](NC(=O)OCc3ccccc3)C(=O)N[C@@H](C(C)C)C(=O)N2)NC1=O |  | fluorescence | IC50 | 0.006 µM |
| COC(=O)[C@@H](NC(=O)C[C@H]1CC[C@H](O)[C@H]1NC(=O)[C@H](Cc1ccccc1)NC(=O)OC(C)(C)C)C(C)C |  | absorbance | IC50 | >10 µM |
| CC(C)[C@H](NC(=O)[C@H](C)NC(=O)OCc1ccccc1)C(=O)N[C@@H](Cc1ccccc1)[C@@H](O)C(=O)N[C@H]1Cc2ccc(cc2)OCCCNC(=O)[C@H](C(C)C)NC1=O |  | fluorescence | IC50 | 0.01 µM |
| CC(C)CN(C[C@@H](O)[C@H](Cc1ccccc1)NC(=O)O[C@H]1CO[C@H]2OCC[C@H]21)S(=O)(=O)c1ccc(C(N)=O)cc1 |  | substrate cleavage / fluorescence | Ki | 0.0000089 µM |
| CSCC[C@H](NC(=O)[C@H](CO)NCc1ccccc1)C(=O)NC(C)(C)C |  | HPLC | IC50 | 3.7 µM |
| CC(O)[C@H](NC(=O)CCCCCCCCCCCCCCC(=O)N[C@@H](CS(C)(=O)=O)C(=O)N[C@@H](Cc1ccccc1)C(=O)O)C(=O)N[C@H](C(=O)N[C@@H](Cc1ccccc1)C(N)=O)C1CCCCC1 |  | HPLC | IC50 | 0.58 µM |
| CC(=O)N[C@@H](Cc1c[nH]c2ccccc12)C(=O)N[C@H](C(=O)N[C@@H](Cc1ccccc1)[C@@H](O)C(=O)N[C@H]1Cc2ccc(cc2)OCCOCCNC(=O)[C@H](C(C)C)NC1=O)C(C)C |  | fluorescence | IC50 | 0.005 µM |
| CC(C)C[C@H](NC(=O)[C@@H](NC(=O)CCCCCCCCCCCCCCC(=O)N[C@@H](Cc1ccc(N)cc1)C(=O)N[C@@H](Cc1ccccc1)C(=O)O)C(C)C)C(=O)N[C@@H](Cc1ccccc1)C(N)=O |  | HPLC | Ki | 0.051 µM |
| CC(C)[C@H](N)C(=O)N[C@H](C(=O)N[C@@H](Cc1ccccc1)[C@H](O)C(=O)N[C@H](Cc1ccccc1)C(=O)N[C@@H](C(=O)N[C@@H](C(N)=O)C(C)C)C(C)C)C(C)C |  |  | IC50 | ~1000 µM |
| CCCN([C@H](CO)CCC[C@@H](NC(=O)[C@@H](NC(=O)OC)C(c1ccccc1)c1ccccc1)C(F)(F)F)S(=O)(=O)c1ccc(CO)cc1 |  | HPLC | IC50 | 0.00001 µM |
| CC(C)C[C@H](NC(=O)[C@@H](NC(=O)CCCCCCCCCCCCCCC(=O)N[C@@H](CC(N)=O)C(=O)N[C@@H](Cc1cccc2ccccc12)C(=O)O)C(C)O)C(=O)N[C@@H](Cc1ccc(-c2ccccc2)cc1)C(N)=O |  | HPLC | IC50 | 0.51 µM |
| CC(C)C[C@H](NC(=O)C[C@@H]1CC[C@H](NC(=O)[C@H](Cc2ccccc2)NC(=O)[C@@H](NC(=O)OCc2ccccc2)C(C)C)[C@H]1O)C(=O)NC(C)(C)C |  | absorbance | IC50 | >10 µM |
| CSCC[C@H](NC(=O)CCCCCCCCCCCCCCC(=O)N[C@H](C(=O)N[C@@H](CC(C)C)C(=O)N[C@H](C(N)=O)C1CCCCC1)C(C)O)C(=O)N[C@@H](Cc1ccccc1)C(=O)O |  | HPLC | IC50 | 0.67 µM |
| CC(C)C[C@H](NC(=O)C[C@@H]1CC[C@@H](O)[C@@H]1NC(=O)[C@H](Cc1ccccc1)NC(=O)[C@@H](NC(=O)OCc1ccccc1)C(C)C)C(=O)NC(C)(C)C |  | absorbance | IC50 | >10 µM |
| CN[C@H](C(=O)C[C@H](CCC[C@@H](CO)N(C(C)C)S(=O)(=O)c1ccc(N)cc1)C(F)(F)F)C(c1ccccc1)c1ccccc1 |  | HPLC | IC50 | 0.000131 µM |
| COC(=O)[C@@H](NC(=O)C[C@@H]1CC[C@H](NC(=O)[C@H](C)NC(=O)OC(C)(C)C)[C@H]1O)C(C)C |  | absorbance | IC50 | >10 µM |
| CCOC(=O)C1=CN(Cc2ccccc2)C2C(CO)(C3N(Cc4ccccc4)C=C(C(=O)OCC)[C@H](c4ccccc4)C23CO)[C@H]1c1ccccc1 |  |  | IC50 | 12.1 µM |
| CC(C)C[C@H](NC(=O)[C@@H](NC(=O)CCCCCCCCCCCCCCC(=O)N[C@@H](Cc1ccc(N)cc1)C(=O)N[C@@H](Cc1ccccc1)C(=O)O)C(C)O)C(=O)N[C@@H](Cc1ccc(-c2ccccc2)cc1)C(N)=O |  | HPLC | IC50 | 1.02 µM |

Repeating the first 4 entries:

SMILES,conditions,read by,read-out,result
CC[C@H](C)[C@H](NC(=O)[C@@H]1CCCN1C(=O)[C@H](O)[C@H](Cc1ccccc1)NC(=O)[C@H](CO)NC(=O)CCc1ccccc1)C(=O)N[C@H](C(N)=O)C(C)C,,,IC50,<5 µM
CSCC[C@H](NC(=O)[C@H](CCO)N(Cc1ccccc1)C(=O)[C@H](Cc1ccccc1)NC(=O)OC1c2ccccc2-c2ccccc21)C(=O)NC(C)(C)C,,HPLC,IC50,0.297 µM
CC[C@H](C)[C@@H](C(=O)N[C@H](C(N)=O)C(C)C)N(C)C(=O)[C@@H]1CCCN1C(=O)[C@@H](O)[C@H](Cc1ccccc1)NC(=O)[C@H](CC(N)=O)NC(=O)CCc1ccccc1,,,IC50,>5 µM
CC(=O)N[C@@H](Cc1ccc(F)cc1)C(=O)N[C@H](C(=O)N[C@@H](Cc1ccccc1)[C@@H](O)C(=O)N[C@H]1Cc2ccc(cc2)OCCCNC(=O)[C@H](C(C)C)NC1=O)C(C)C,,fluorescence,IC50,0.003 µM